Reference: patent US8691859B2 (priority 2005, dated 2014)

What was measured:
[1] = test system: Vancomycin resistant E. feacalis; assay: MIC, visual inspection and OD600
[2] = test system: Vancomycin resistant E. faecium; assay: MIC, visual inspection and OD600

SMILES: c1cc2cc(-c3ccc(-c4cc5ccc(C6=NCCN6)cc5[nH]4)cc3)[nH]c2cc1C1=NCCN1 [NSC 317881, 6-(4,5-dihydro-1H-imidazol-2-yl)-2-[4-[6-(4,5-dihydro-1H-imidazol-2-yl)-1H-indol-2-yl]phenyl]-1H-indole]
- MIC [1]: 0.155 µg/mL (≈ 0.349 µM)
- MIC [2]: 0.155 µg/mL (≈ 0.349 µM)

≈ marks a conversion by molar mass, not a printed value.
